Consider one compound from BindingDB's records for doi:10.1074/jbc.M113.502971 (Hebrew University of Jerusalem, 2013).

By UniProt entry, the sequences of proteins in these tests, tags left out.
UniProt Q01827, whole entry: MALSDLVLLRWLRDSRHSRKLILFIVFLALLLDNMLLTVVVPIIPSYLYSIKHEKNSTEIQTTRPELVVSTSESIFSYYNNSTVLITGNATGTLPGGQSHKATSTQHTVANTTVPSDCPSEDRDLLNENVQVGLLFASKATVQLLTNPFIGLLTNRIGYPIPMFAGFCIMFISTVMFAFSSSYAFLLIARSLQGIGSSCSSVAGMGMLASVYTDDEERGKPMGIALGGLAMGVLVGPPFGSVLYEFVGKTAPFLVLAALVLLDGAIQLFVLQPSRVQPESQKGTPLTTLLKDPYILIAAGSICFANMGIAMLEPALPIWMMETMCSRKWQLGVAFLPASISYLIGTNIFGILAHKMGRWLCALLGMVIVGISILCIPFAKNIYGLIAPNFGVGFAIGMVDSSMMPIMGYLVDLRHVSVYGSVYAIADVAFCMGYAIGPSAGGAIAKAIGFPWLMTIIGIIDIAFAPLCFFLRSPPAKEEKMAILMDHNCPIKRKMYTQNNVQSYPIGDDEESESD
UniProt Q01827, whole entry G308A: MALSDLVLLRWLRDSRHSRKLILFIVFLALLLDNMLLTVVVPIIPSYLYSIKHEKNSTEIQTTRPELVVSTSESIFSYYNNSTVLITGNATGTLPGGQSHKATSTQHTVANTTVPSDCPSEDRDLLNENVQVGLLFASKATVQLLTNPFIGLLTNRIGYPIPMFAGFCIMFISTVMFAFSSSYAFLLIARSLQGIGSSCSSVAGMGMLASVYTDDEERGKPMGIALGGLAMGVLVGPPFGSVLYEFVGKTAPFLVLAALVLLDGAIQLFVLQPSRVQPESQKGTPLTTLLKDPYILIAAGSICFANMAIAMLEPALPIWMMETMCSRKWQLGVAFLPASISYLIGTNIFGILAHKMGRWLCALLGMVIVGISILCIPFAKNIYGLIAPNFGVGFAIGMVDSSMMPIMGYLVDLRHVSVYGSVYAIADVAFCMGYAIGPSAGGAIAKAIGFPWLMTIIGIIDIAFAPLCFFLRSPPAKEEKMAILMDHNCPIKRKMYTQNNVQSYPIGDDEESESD
UniProt Q01827, whole entry G308P: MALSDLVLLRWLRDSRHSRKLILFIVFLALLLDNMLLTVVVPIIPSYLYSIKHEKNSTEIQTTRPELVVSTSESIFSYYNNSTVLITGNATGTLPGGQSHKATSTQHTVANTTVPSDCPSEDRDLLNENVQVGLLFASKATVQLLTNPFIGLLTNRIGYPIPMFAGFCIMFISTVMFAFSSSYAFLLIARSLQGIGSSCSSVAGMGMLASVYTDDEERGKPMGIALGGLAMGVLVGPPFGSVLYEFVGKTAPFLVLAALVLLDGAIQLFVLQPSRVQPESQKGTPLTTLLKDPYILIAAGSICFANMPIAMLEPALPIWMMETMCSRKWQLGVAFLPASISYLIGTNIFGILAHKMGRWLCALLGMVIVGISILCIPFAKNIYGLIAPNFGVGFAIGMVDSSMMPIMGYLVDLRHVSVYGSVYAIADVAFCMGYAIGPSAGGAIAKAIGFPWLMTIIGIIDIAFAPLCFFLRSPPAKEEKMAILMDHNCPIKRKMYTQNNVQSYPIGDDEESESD
UniProt Q01827, whole entry P314G: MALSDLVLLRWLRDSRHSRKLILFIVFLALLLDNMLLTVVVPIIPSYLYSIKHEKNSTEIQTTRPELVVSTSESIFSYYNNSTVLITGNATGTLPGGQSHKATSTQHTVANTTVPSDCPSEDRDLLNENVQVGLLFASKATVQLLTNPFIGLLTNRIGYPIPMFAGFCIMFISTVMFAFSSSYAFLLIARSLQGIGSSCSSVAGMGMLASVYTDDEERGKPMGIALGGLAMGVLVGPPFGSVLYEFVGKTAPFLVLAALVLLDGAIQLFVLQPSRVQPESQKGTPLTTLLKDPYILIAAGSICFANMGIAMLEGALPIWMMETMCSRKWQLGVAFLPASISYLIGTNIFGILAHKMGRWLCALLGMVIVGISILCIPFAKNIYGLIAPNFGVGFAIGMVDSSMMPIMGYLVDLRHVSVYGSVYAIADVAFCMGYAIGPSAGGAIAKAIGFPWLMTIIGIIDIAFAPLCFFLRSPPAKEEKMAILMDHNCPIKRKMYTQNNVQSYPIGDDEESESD
UniProt Q01827, whole entry P314L: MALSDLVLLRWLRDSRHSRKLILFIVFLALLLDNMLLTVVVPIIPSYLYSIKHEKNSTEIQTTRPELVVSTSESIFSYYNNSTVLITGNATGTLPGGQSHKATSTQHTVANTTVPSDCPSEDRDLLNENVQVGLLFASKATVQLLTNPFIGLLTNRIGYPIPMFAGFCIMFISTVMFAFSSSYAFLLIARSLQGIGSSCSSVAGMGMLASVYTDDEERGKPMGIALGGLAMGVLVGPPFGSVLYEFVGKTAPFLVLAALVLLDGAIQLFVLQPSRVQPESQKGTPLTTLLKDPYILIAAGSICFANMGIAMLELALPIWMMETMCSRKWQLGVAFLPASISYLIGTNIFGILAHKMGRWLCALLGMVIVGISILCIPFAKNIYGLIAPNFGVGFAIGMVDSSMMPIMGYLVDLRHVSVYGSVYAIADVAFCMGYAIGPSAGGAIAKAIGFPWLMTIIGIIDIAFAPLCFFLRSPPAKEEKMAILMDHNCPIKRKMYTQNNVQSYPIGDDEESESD
UniProt Q01827, whole entry P314T: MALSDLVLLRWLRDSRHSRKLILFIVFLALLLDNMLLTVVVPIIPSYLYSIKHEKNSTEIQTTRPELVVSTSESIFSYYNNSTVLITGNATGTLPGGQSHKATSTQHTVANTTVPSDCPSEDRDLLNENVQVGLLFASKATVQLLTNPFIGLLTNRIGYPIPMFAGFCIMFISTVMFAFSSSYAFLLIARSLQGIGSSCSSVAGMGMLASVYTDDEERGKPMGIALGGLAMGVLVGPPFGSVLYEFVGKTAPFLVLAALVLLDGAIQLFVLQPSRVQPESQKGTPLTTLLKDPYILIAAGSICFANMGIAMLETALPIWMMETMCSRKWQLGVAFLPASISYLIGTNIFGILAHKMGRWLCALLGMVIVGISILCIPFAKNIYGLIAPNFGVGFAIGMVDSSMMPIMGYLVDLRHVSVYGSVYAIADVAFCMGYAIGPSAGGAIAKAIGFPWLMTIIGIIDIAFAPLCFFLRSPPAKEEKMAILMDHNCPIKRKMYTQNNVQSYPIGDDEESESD
UniProt Q01827, whole entry V132A: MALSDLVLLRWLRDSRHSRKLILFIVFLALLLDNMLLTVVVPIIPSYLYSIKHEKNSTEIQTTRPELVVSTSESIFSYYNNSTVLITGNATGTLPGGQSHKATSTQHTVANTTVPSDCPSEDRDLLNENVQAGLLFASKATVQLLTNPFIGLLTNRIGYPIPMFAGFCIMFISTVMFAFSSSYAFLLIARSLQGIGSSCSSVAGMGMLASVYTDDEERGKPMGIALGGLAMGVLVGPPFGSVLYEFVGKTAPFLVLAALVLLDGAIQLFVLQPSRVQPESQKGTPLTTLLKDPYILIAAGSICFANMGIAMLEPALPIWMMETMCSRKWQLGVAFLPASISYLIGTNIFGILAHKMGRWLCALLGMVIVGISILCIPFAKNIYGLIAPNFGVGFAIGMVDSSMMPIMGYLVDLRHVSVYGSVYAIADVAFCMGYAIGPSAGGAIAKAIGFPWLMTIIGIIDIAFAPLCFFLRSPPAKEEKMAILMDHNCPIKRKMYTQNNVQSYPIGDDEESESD
UniProt Q01827, whole entry V132G: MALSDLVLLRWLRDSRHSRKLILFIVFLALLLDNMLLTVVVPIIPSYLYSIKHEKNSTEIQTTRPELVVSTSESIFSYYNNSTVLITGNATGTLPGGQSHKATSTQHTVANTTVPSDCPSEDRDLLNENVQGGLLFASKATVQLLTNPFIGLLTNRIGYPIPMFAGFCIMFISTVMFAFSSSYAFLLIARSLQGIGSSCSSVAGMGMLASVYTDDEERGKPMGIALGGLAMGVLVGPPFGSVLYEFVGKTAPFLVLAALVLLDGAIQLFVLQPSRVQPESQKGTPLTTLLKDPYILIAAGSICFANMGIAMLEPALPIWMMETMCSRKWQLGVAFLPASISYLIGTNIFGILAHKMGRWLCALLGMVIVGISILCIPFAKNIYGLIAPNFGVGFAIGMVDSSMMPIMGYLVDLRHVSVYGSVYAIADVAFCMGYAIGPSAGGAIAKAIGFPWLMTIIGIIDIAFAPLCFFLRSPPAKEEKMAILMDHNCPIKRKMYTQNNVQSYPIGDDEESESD
UniProt Q01827, whole entry V41A: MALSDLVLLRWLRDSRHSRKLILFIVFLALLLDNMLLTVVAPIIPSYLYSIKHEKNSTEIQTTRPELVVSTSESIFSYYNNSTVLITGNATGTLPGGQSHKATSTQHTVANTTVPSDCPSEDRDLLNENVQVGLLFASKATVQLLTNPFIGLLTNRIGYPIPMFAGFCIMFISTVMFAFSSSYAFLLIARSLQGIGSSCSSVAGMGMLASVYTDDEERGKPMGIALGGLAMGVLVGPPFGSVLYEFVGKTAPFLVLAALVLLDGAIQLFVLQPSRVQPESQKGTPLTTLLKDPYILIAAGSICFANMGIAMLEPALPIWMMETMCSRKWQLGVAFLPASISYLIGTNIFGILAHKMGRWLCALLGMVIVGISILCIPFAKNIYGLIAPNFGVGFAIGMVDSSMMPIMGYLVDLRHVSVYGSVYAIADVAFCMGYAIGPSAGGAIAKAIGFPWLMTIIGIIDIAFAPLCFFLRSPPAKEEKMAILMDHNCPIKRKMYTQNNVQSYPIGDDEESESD
UniProt Q01827, whole entry V41I: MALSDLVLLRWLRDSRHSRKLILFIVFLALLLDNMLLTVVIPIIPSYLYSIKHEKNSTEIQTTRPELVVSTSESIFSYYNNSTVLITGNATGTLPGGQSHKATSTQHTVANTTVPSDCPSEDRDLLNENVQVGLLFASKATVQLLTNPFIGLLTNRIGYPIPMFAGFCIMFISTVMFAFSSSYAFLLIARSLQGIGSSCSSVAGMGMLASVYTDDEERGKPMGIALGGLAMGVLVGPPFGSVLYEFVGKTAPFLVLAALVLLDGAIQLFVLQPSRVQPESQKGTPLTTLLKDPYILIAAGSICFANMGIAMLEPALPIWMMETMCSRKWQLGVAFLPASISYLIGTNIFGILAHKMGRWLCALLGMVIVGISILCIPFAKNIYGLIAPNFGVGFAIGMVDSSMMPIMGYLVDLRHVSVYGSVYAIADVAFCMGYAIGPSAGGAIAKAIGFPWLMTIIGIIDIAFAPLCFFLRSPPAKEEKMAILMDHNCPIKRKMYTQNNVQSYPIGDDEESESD

Where only a bound is given, the exact number is not on record here.

Holding throughout (assay): [3H]Serotonin Uptake Assay
Details in all cases: pH 8.5

For assay [1], the target named is Synaptic vesicular amine transporter (Rattus norvegicus, UniProt Q01827).
Assay [2] has as its target Synaptic vesicular amine transporter [G308A] (Rat, UniProt Q01827, G308A).
The target in assay [3] is Synaptic vesicular amine transporter [G308P] (Rat, UniProt Q01827, G308P).
Assay [4] concerns the target Synaptic vesicular amine transporter [P314G] (Rat, UniProt Q01827, P314G).
In assay [5] the target is Synaptic vesicular amine transporter [P314L] (Rat, UniProt Q01827, P314L).
In assay [6] the target is Synaptic vesicular amine transporter [P314T] (Rat, UniProt Q01827, P314T).
The target of assay [7] is Synaptic vesicular amine transporter [V132A] (Rat, UniProt Q01827, V132A).
The target in assay [8] is Synaptic vesicular amine transporter [V132G] (Rat, UniProt Q01827, V132G).
Assay [9] deals with Synaptic vesicular amine transporter [V41A] (Rat, UniProt Q01827, V41A).
For assay [10], the target named is Synaptic vesicular amine transporter [V41I] (Rat, UniProt Q01827, V41I).

As a reminder, the IC50 is the concentration that gives 50% inhibition. Low readings indicate inhibition by little substance, high ones a need for much substance. Consider `COC(=O)[C@H]1[C@H]2C[C@@H]3c4[nH]c5cc(OC)ccc5c4CCN3C[C@H]2C[C@@H](OC(=O)c2cc(OC)c(OC)c(OC)c2)[C@@H]1OC` [Apoplon], for which the 50% inhibitory concentration (IC50) in [1] amounted to 2.5 nM; in [2], 4.5 nM; in assay [3] it was 2 nM; in assay [4] it was 3.8 nM; in [5], 4.9 nM; in assay [6], 4.3 nM. For the same compound, the IC50 in assay [7] was more than 50 nM; in [8], more than 100 nM; in assay [9] it was 1.3 nM; in assay [10] it was 3.7 nM.
